A mixed list of measured activities; the numbers were collected in NIAID ChemDB.

Shared fields: toxicity to cultured cells; endpoint: CC50

CCn is the concentration with n% toxicity to the cells. An empty or dashed field is not shown. Conditions beyond the fields shown may differ between rows.

smiles | cell line | method | value
COC(=O)C[C@H]1C(C)(C)[C@H](OC(C)=O)[C@H]2C(=O)[C@]1(C)[C@H]1CC[C@]3(C)C(=CC(=O)O[C@H]3c3ccoc3)[C@]13O[C@H]23 | SupT1 |  | 78.45 µM
CC/C=C\C[C@@H]1[C@@H](CC(=O)OC)CC[C@H]1O | RAJI | ATP | >26 µM
C#CCCC[C@@H]1OC(=O)CNC(=O)[C@H](C(C)C)NC(=O)[C@@H]2CCCN2C(=O)[C@H]([C@@H](C)CC)OC(=O)[C@H](Cc2ccccc2)N(C)C(=O)[C@H](C(C)C)NC(=O)C1(C)C | MCF-7 | MTT | 83 µM
COc1ccc(C(=O)NC2N=C(c3ccc(C(F)(F)F)cc3)c3ccccc3NC2=O)cc1 | HEP-2 |  | 7 µM
Cc1nc(Cl)c([N+](=O)[O-])c(N2CC[N+](C)(C)CC2)n1 | K562 |  | >483.6 µg/mL
O=C(/C=C/C=C/c1ccc(Br)cc1)[Se]c1ccccc1 | HLE | WST | >100 µM
CCOC(=O)C1=C(C)NC(C)=C(C(=O)OC)C1c1cccc(Cl)c1Cl | n4mBid | luminescence | >30 µM
Nc1nc(NC2CC2)c2ncn([C@H]3C=C[C@@H](CO)C3)c2n1 | HLE | WST | >100 µM
CC(C)=CCC/C(C)=C/CC/C(C)=C/CC[C@@]1(C)CCc2cc(O)cc(C)c2O1 | RAJI | ATP | >26 µM
O=C(/C=C/C=C/c1ccc(O)c(O)c1)[Se]c1ccccc1 | HLE | WST | >100 µM
C#CCCC[C@@H]1OC(=O)CNC(=O)[C@H]([C@@H](C)CC)NC(=O)[C@@H]2CCCN2C(=O)[C@H]([C@@H](C)CC)OC(=O)[C@H](Cc2ccccc2)NC(=O)[C@H](C(C)C)NC(=O)C1(C)C | HT-29 | MTT | >100 µM
O=C(O)C(=O)CC(=O)c1cc(OCc2ccccc2)cc(OCc2ccccc2)c1 | HuT-78 |  | >50 µM
C/C=C/c1ccc2c(c1)[C@H](C)[C@@H](c1ccc(O)cc1)O2 | HT-29 | sulforhodamine / absorbance | 41.5 µM
CCOc1ccc2ccccc2c1C(=O)NC1N=C(c2ccccc2)c2ccccc2NC1=O | HEP-2 |  | 8.2 µM
O=C(O[C@@H]1Cc2c(O)cc(O)cc2O[C@@H]1c1cc(O)c(O)c(O)c1)c1cc(O)c(O)c(O)c1 | Huh-7/3-1 |  | 41.68 µg/mL
COc1cc2c(cc1OC)-c1c3c(cc4ccnc(c14)C2=O)OCO3 | P-388 | sulforhodamine / absorbance | 9.6 µM
CC1(C)CC[C@]2(C(=O)O)CC[C@]3(C)C(=CC[C@@H]4[C@@]5(C)C[C@@H](O)[C@H](O)C(C)(C)[C@@H]5CC[C@]43C)[C@@H]2C1 | BJ | ATP | >26 µM
COc1ncnc(N2CC[N+]3(CC2)CC[N+]2(CCN(c4ncnc(OC)c4[N+](=O)[O-])CC2)CC3)c1[N+](=O)[O-] | GMK |  | >760.4 µg/mL
COc1cccc(C2(c3ccccc3)NC(NC(=O)C(C)C)C(=O)Nc3ccccc32)c1 | HEP-2 |  | 5 µM
C/C=C1\C(=O)O[C@]23C=C[C@@H]4C(C(=O)OC)=CO[C@H](O[C@@H]12)[C@@H]43 | J774G8 | MTT | 5.99 µg/mL
O=[N+]([O-])c1c(Cl)ncnc1NN1CC[N+]2(CC1)CC[N+]1(CCN(Nc3ncnc(Cl)c3[N+](=O)[O-])CC1)CC2 | GMK |  | 715.1 µg/mL
O=C(c1ccc(OCCN2CCCCC2)cc1)c1c(-c2ccc(O)cc2)sc2cc(O)ccc12 | n4mBid | luminescence | 7 µM
Nc1ncnc2c1c(I)cn2[C@@H]1O[C@H](CO)[C@@H](O)[C@H]1O | HL-60 | XTT | 6.44 µM
Cc1cn([C@H]2C[C@H](N=[N+]=[N-])[C@@H](COP(=O)(OCCSC(=O)C(C)(C)C)OCCSC(=O)C(C)(C)C)O2)c(=O)[nH]c1=O | MOLT-4/8 | MTT | 21.8 µM
N=C1Sc2ccccc2C2=NCCCN12 | n4mBid | luminescence | >60 µM
COc1ccc(/C=C/C=C/C(=O)[Se]c2ccccc2)cc1 | HLE | WST | >100 µM
Cc1ccnc2c1NC(=O)c1cccnc1N2C1CC1 | CEM-GFP | MTS | 917 µM
O=C(NC1NC(c2ccccc2)(c2cccc(Cl)c2)c2ccccc2NC1=O)c1cccs1 | HEP-2 |  | 5 µM
CC(=O)SCCOP(=O)(OCCSC(C)=O)OC[C@H]1O[C@@H](n2cc(C)c(=O)[nH]c2=O)C[C@@H]1N=[N+]=[N-] | MOLT-4/8 | MTT | 37.1 µM
CC(C)C1CCC2[C@]1(C)CCC1[C@]23C=C[C@]2(C[C@@H](O)CC[C@]12C)OO3 | Hs27 | ATP / luminescence | 100 µM
Nc1ccn([C@H]2CC[C@@H](CO)O2)c(=O)n1 | CFU-GM |  | 0.7 µM
O=C(CCCc1ccccc1)N1CC[N+]2(CC1)CC[N+]1(CCN(C(=O)CCCc3ccccc3)CC1)CC2 | GMK |  | >339.2 µg/mL
O=C1CCC(c2ccccc2)C(=O)N1 | VERO 76 | MTT | 98 µM
CC1CCCC23CC4C(CC12C)C4(C)C3 | RAJI | ATP | >26 µM
O=C1N(Cc2ccc(CO)cc2)[C@H](Cc2ccccc2)[C@H](O)[C@@H](O)[C@@H](Cc2ccccc2)N1Cc1ccc(CO)cc1 | MT-2/MT-4 |  | 67.5 µM
Nc1nc(NC2CC2)c2ncn([C@H]3C=C[C@@H](CO)O3)c2n1 | MT-2 |  | >100 µM
Cc1cc(/C=C/C#N)cc(C)c1Nc1ccnc(Nc2ccc(C#N)cc2)n1 | CEM-GFP | MTS | 822 µM
NC(=O)c1ncn([C@@H]2O[C@H](CO)[C@@H](O)[C@H]2O)c1C#CCO | PRK |  | 0.55 µg/mL
Fc1ccc(C(c2ccc(F)cc2)N2CCN(C/C=C/c3ccccc3)CC2)cc1 | n4mBid | luminescence | 18 µM
Nc1nc2c(ncn2[C@H]2CO[C@@H](CO)O2)c(=O)[nH]1 | 2.2.15 |  | 2000 µM
c1ccc2c(c1)CCc1ccccc1C2 | HELA-H1 |  | 150 µM
Nc1nc2c(ncn2COCCO)c(=O)[nH]1 | BCC-1/KMC |  | 126.8 µg/mL
C#Cc1c(C(N)=O)ncn1[C@@H]1O[C@H](CO)[C@@H](O)[C@H]1O | PRK |  | 0.37 µg/mL
OC1C(O)C(O)C(O)C(O)C1O | RAJI | ATP | >26 µM
O=c1c2ccccc2ccc2ccccc12 | HELA-H1 |  | >200 µM
C=CCCC[C@@H]1OC(=O)CNC(=O)[C@H]([C@@H](C)CC)NC(=O)[C@@H]2CCCN2C(=O)[C@H]([C@@H](C)CC)OC(=O)[C@H](Cc2ccccc2)N(C)C(=O)[C@H](C(C)C)NC(=O)C1(C)C | MCF-7 | MTT | 11 µM
CC1=NN=C(C)C2C=C([N+](=O)[O-])C(Cl)=C12 | MOUSE EMT6 |  | 13.5 µM
Clc1ccc2c(c1)C(N1CCNCC1)=Nc1ccccc1O2 | n4mBid | luminescence | 17 µM
Cc1cn([C@H]2C[C@H](N=[N+]=[N-])[C@@H](CO)O2)c(=O)[nH]c1=O | MOLT-4/8(r)AZT(250) | MTT | >2500 µM
O=C1CCC(c2ccccc2)C(=O)N1CCCN1CCN(c2ncccn2)CC1 | VERO 76 | MTT | 98 µM
C[N+]1(C)CCN(c2ncnc(Cl)c2[N+](=O)[O-])CC1 | K562 |  | >500.5 µg/mL
C=C1[C@H](CO)[C@@H](O)C[C@@H]1n1cnc2c(=O)[nH]c(N)nc21 | HepG2 2.2.15 | MTT | 73 µM
CC[C@H](CC[C@@H](C)[C@H]1CCC2C3CC=C4C[C@@H](O)CC[C@]4(C)[C@@]3(C)CC[C@@]21C)C(C)C | RAJI | ATP | >26 µM
Nc1nc(NC2CC2)c2ncn([C@H]3C=C[C@@H](CO)C3)c2n1 | CEM-GFP | MTS | 422 µM
O=c1[nH]cnc(N2CC[N+]3(CC2)CC[N+]2(CCN(c4nc[nH]c(=O)c4[N+](=O)[O-])CC2)CC3)c1[N+](=O)[O-] | GMK |  | >869 µg/mL
NC(=O)c1ncn([C@@H]2O[C@H](CO)[C@@H](O)[C@H]2O)n1 | Ava5 | neutral red | 76 µM
O=c1[nH]cnc2c1ncn2[C@H]1CC[C@@H](CO)O1 | JM |  | 1111 µM
COC(=O)[C@H](C)NP(=O)(OC[C@@H]1C[C@]12C[C@@H]2n1cnc2c(N)ncnc21)Oc1ccccc1 | BSC-1 |  | 70 µM
CC1=NN=C(C)C2C=C(Cl)C(Cl)=C12 | MOUSE EMT6 |  | 16 µM
Nc1ncnc2c1ccn2[C@@H]1O[C@H](CO)[C@@H](O)[C@H]1O | PRK |  | 0.0061 µg/mL
O=C1Nc2ccc(Cl)cc2[C@@](C#CC2CC2)(C(F)(F)F)O1 | CEM-GFP | MTS | 42 µM
CSc1nc(Cl)c([N+](=O)[O-])c(N2CC[N+]3(CC2)CC[N+]2(CCN(c4nc(SC)nc(Cl)c4[N+](=O)[O-])CC2)CC3)n1 | L929 |  | >263.7 µg/mL
O=C1CCC(c2ccccc2)C(=O)N1CCCCN1CCN(c2ccccc2)CC1 | VERO 76 | MTT | >100 µM
Oc1cc(O)c2c(c1)O[C@@]1(c3cc(O)c(O)c(O)c3)Oc3cc(O)c4c(c3[C@@H]2[C@H]1O)O[C@H](c1ccc(O)c(O)c1)[C@@H](O)C4 | Huh-7/3-1 |  | 18.5 µg/mL
Nc1nc(NC2CC2)c2ncn([C@H]3C=C[C@@H](CO)C3)c2n1 | MT-2 |  | 52 µM
O=[N+]([O-])c1c(N2CCCC2)ncnc1N1CC[N+]2(CC1)CC[N+]1(CCN(c3ncnc(N4CCCC4)c3[N+](=O)[O-])CC1)CC2 | GMK |  | >733.6 µg/mL
O=c1[nH]cnc2c1ncn2[C@H]1CC[C@@H](CO)O1 | MT-2 |  | >>100 µM
Nc1ncnc2c1ncn2CCOCP(=O)(O)O | Duck hepatocytes |  | 40 µM
COc1ccccc1N1CCN(CCCCN2C(=O)CCC(c3ccccc3)C2=O)CC1 | VERO 76 | MTT | >100 µM

For reference, 9 entries again:

smiles | cell line | method | value
CC(C)C1CCC2[C@]1(C)CCC1[C@]23C=C[C@]2(C[C@@H](O)CC[C@]12C)OO3 | Hs27 | ATP / luminescence | 100 µM
C[N+]1(C)CCN(c2ncnc(Cl)c2[N+](=O)[O-])CC1 | K562 |  | >500.5 µg/mL
CSc1nc(Cl)c([N+](=O)[O-])c(N2CC[N+]3(CC2)CC[N+]2(CCN(c4nc(SC)nc(Cl)c4[N+](=O)[O-])CC2)CC3)n1 | L929 |  | >263.7 µg/mL
N=C1Sc2ccccc2C2=NCCCN12 | n4mBid | luminescence | >60 µM
Cc1nc(Cl)c([N+](=O)[O-])c(N2CC[N+](C)(C)CC2)n1 | K562 |  | >483.6 µg/mL
COc1cc2c(cc1OC)-c1c3c(cc4ccnc(c14)C2=O)OCO3 | P-388 | sulforhodamine / absorbance | 9.6 µM
O=C(O[C@@H]1Cc2c(O)cc(O)cc2O[C@@H]1c1cc(O)c(O)c(O)c1)c1cc(O)c(O)c(O)c1 | Huh-7/3-1 |  | 41.68 µg/mL
O=C(NC1NC(c2ccccc2)(c2cccc(Cl)c2)c2ccccc2NC1=O)c1cccs1 | HEP-2 |  | 5 µM
CC1CCCC23CC4C(CC12C)C4(C)C3 | RAJI | ATP | >26 µM